Results of unrelated studies side by side (data: NIAID ChemDB).

Shared fields: growth or infection tests; organism: Hepatitis C virus; endpoint: inhibition

Lines come from different laboratories, so protocols vary.

COc1cccc(-c2ccccc2NC(=O)C2CCN(CC(C)(C)C)CC2)c1 ; strain: JFH-1 ; dose: 15 µM ; cell line: Huh7 ; method: PCR ; value: ≥40%
CC1(C)CC[C@@]2(C(=O)NCCCCCCCCCCCCNC(=O)[C@]34CCC(C)(C)CC3C3=CCC5[C@@]6(C)CC[C@H](O)C(C)(C)C6CC[C@@]5(C)[C@]3(C)C[C@H]4O)C(C1)C1=CCC3[C@@]4(C)CC[C@H](O)C(C)(C)C4CC[C@@]3(C)[C@]1(C)C[C@H]2O ; dose: 5 µM ; cell line: Huh7 ; method: luciferase / entry ; value: 65.1%
C=CCNC(=O)C(=O)C(CCC)NC(=O)[C@@H]1[C@@H]2[C@H](CN1C(=O)[C@@H](NC(=O)N[C@H](CN1Cc3ccccc3S1(=O)=O)C(C)(C)C)C(C)(C)C)C2(C)C ; dose: 0.15 µM ; value: 90%
CCCC[C@H](NC(=O)[C@@H]1[C@@H]2[C@H](CN1C(=O)[C@@H](NC(=O)NC1(CS(=O)(=O)C(C)(C)C)CCCCC1)C(C)(C)C)C2(C)C)C(=O)C(=O)NC1CC1 ; dose: 0.04 µM ; method: replicon ; value: 90%
COC(=O)/C=C1\S/C(=N/N=C/c2cccc(OC)c2)NC1=O ; strain: 1b Con1 (replicon) ; dose: 34 µM ; cell line: Huh 5-2 ; method: luciferase / luminescence ; value: 76.1%
COc1cc(Cc2cnc(/N=C3\C(=O)N(CN4CCNCC4)c4ccc(C)cc43)nc2N)cc(OC)c1OC ; dose: 50 µg/mL ; cell line: Huh7 ; value: 96%
Cc1ccc2nc(Nc3cccc([N+](=O)[O-])c3)sc2c1 ; dose: 5 µM ; cell line: Huh7 ; method: luciferase ; value: 32%
Cc1ccc(CN2CCC(C(=O)Nc3ccc(Oc4ccccc4F)cc3)CC2)o1 ; strain: JFH-1 ; dose: 15 µM ; cell line: Huh7 ; method: PCR ; value: ≥40%
COc1cc(Cc2cnc(/N=C3\C(=O)N(CN4CCCCC4)c4ccc(C)cc43)nc2N)cc(OC)c1OC ; dose: 50 µg/mL ; cell line: Huh7 ; value: 99%
CC1(C)CC[C@@]2(C(=O)NCc3cn(CC(CO)(Cn4cc(CNC(=O)[C@]56CCC(C)(C)CC5C5=CCC7[C@@]8(C)CC[C@H](O)C(C)(C)C8CC[C@@]7(C)[C@]5(C)C[C@H]6O)nn4)Cn4cc[n+](CNC(=O)[C@]56CCC(C)(C)CC5C5=CCC7[C@@]8(C)CC[C@H](O)C(C)(C)C8CC[C@@]7(C)[C@]5(C)C[C@H]6O)n4)nn3)C(C1)C1=CCC3[C@@]4(C)CC[C@H](O)C(C)(C)C4CC[C@@]3(C)[C@]1(C)C[C@H]2O ; dose: 5 µM ; cell line: Huh7 ; method: luciferase / entry ; value: 52.7%
O=C(Nc1cccc(-c2cc3ccccc3[nH]2)c1)C1CCN(COc2cncs2)CC1 ; strain: JFH-1 ; dose: 15 µM ; cell line: Huh7 ; method: PCR ; value: ≥40%
Cc1c(C(=O)NN2CCCCC2)nn(-c2ccc(Cl)cc2Cl)c1-c1ccc(I)cc1 ; strain: JFH-1 ; dose: 10 µM ; cell line: Huh7 ; method: PCR ; value: 70%
Nc1nc2c(ncn2[C@@H]2O[C@H](CO)[C@@H](O)[C@@H]2F)c(=O)[nH]1 ; dose: 20 µM ; cell line: Huh7 ; method: replicon ; value: 62%
COC(=O)/C=C1\S/C(=N/N=C/c2cc([N+](=O)[O-])ccc2O)NC1=O ; strain: 1b Con1 (replicon) ; dose: 4.79 µM ; cell line: Huh 5-2 ; method: luciferase / luminescence ; value: 64.5%
Cc1ccc2nc(Nc3cc(O)cc([N+](=O)[O-])c3)sc2c1 ; dose: 20 µM ; cell line: Huh7 ; method: luciferase ; value: 66%
O=C(N[C@@H](C(=O)N1CCC[C@H]1C(=O)Nc1nc(-c2ccccc2)cs1)c1ccccc1)C1CC1 ; strain: genotype 2a ; dose: 1.1746 µM ; method: luciferase ; value: 90%
CC1(C)CC[C@@]2(C(=O)NCc3cn(CCc4ccc(CCn5cc(CNC(=O)[C@]67CCC(C)(C)CC6C6=CCC8[C@@]9(C)CC[C@H](O)C(C)(C)C9CC[C@@]8(C)[C@]6(C)C[C@H]7O)nn5)cc4)nn3)C(C1)C1=CCC3[C@@]4(C)CC[C@H](O)C(C)(C)C4CC[C@@]3(C)[C@]1(C)C[C@H]2O ; dose: 1 µM ; cell line: Huh7 ; method: luciferase / entry ; value: 65.2%
COc1cc(Cc2cnc(/N=C3\C(=O)N(CN4CCN(c5c(OC)cc6c(c5F)c(=O)c(C(=O)O)cn6C5CC5)CC4C)c4ccc(C)cc43)nc2N)cc(OC)c1OC ; dose: 50 µg/mL ; cell line: Huh7 ; value: 65%
COC(=O)c1c(C)cc(OC(=O)c2c(C)cc(O)c(C(=O)O)c2O)c(C)c1O ; strain: FL-J6/JFH-5'C19Rluc2AUbi ; dose: 100 µM ; cell line: Huh7.5.1 ; method: luciferase ; value: 0%
O=C1C[C@@H](c2ccc(O)cc2)Oc2cc(O)cc(O)c21 ; dose: 200 µM ; value: 79%
O=C(Nc1cccnc1Oc1ccccc1)C1CCN(Cc2ccc(-c3ccc(Cl)s3)cc2)CC1 ; strain: JFH-1 ; dose: 5 µM ; cell line: Huh7 ; method: PCR ; value: ≥40%
COc1cc(Cc2cnc(/N=C3\C(=O)N(CN4CCN(c5ccccn5)CC4)c4ccc(C)cc43)nc2N)cc(OC)c1OC ; dose: 50 µg/mL ; cell line: Huh7 ; value: 72%
CC1(C)CC[C@@]2(C(=O)NCCCCCCNC(=O)[C@]34CCC(C)(C)CC3C3=CCC5[C@@]6(C)CC[C@H](O)C(C)(C)C6CC[C@@]5(C)[C@]3(C)C[C@H]4O)C(C1)C1=CCC3[C@@]4(C)CC[C@H](O)C(C)(C)C4CC[C@@]3(C)[C@]1(C)C[C@H]2O ; dose: 5 µM ; cell line: Huh7 ; method: luciferase / entry ; value: 72.2%
CC(C)(C)NC(=O)N[C@H](C(=O)N1C[C@H]2[C@@H]([C@H]1C(=O)NC(CC1CCC1)C(=O)C(N)=O)C2(C)C)C(C)(C)C ; strain: 1b ; dose: 2.3 µM ; cell line: Huh7 ; value: 90%
CC1(C)CC[C@@]2(C(=O)NCCOCCOCCOCCNC(=O)[C@]34CCC(C)(C)CC3C3=CCC5[C@@]6(C)CC[C@H](O)C(C)(C)C6CC[C@@]5(C)[C@]3(C)C[C@H]4O)C(C1)C1=CCC3[C@@]4(C)CC[C@H](O)C(C)(C)C4CC[C@@]3(C)[C@]1(C)C[C@H]2O ; dose: 1 µM ; cell line: Huh7 ; method: luciferase / entry ; value: 77.5%
COc1nc(N)nc2c1ncn2[C@@H]1O[C@H](COP(=O)(N[C@@H](C)C(=O)OC(C)C)Oc2ccccc2)[C@@H](O)[C@@]1(C)F ; strain: H77 ; dose: 0.0086 µM ; cell line: CEM ; value: 90%
Cc1ccc(CN2CCC(C(=O)Nc3cccc(-c4cc5ccccc5[nH]4)c3)CC2)o1 ; strain: JFH-1 ; dose: 15 µM ; cell line: Huh7 ; method: PCR ; value: <40%
COC(=O)/C=C1\S/C(=N/N=C/c2ccc(Cl)cc2)NC1=O ; strain: 1b Con1 (replicon) ; dose: 48.9 µM ; cell line: Huh 5-2 ; method: luciferase / luminescence ; value: 80.2%
COc1cc(Cn2cc(CNC(=O)[C@]34CCC(C)(C)CC3C3=CCC5[C@@]6(C)CC[C@H](O)C(C)(C)C6CC[C@@]5(C)[C@]3(C)C[C@H]4O)nn2)c(OC)cc1Cn1cc(CNC(=O)[C@]23CCC(C)(C)CC2C2=CCC4[C@@]5(C)CC[C@H](O)C(C)(C)C5CC[C@@]4(C)[C@]2(C)C[C@H]3O)nn1 ; dose: 5 µM ; cell line: Huh7 ; method: luciferase / entry ; value: 83.5%
COC(=O)/C=C1\S/C(=N/N=C/c2ccc(OCc3ccccc3)cc2)NC1=O ; strain: 1b Con1 (replicon) ; dose: 50 µM ; cell line: Huh 5-2 ; method: luciferase / luminescence ; value: 81.5%
CCC(NC(=O)[C@@H]1[C@H]2CC[C@@H](F)[C@H]2CN1C(=O)[C@@H](NC(=O)[C@@H](NC(=O)c1cnccn1)C(C)C)C(C)C)C(=O)C(=O)NC1CC1 ; dose: 25 µM ; value: 84%
O=c1nc(NO)ccn1[C@@H]1O[C@H](CO)[C@@H](O)[C@H]1O ; dose: 5 µM ; conditions: 4 d ; cell line: Huh7 replicon ; value: 90%
COc1cccc(CN2CCC(C(=O)Nc3ccc(-c4nc5ccccc5[nH]4)cc3)CC2)c1 ; strain: JFH-1 ; dose: 5 µM ; cell line: Huh7 ; method: PCR ; value: ≥40%
COC(=O)/C=C1\S/C(=N/N=C/c2cc(OC)c(O)c(OC)c2)NC1=O ; strain: 1b Con1 (replicon) ; dose: 31.4 µM ; cell line: Huh 5-2 ; method: luciferase / luminescence ; value: 54.1%

4 of the rows above, restated:

SMILES,strain,dose,conditions,cell line,method,value
COc1nc(N)nc2c1ncn2[C@@H]1O[C@H](COP(=O)(N[C@@H](C)C(=O)OC(C)C)Oc2ccccc2)[C@@H](O)[C@@]1(C)F,H77,0.0086 µM,-,CEM,-,90%
O=C(Nc1cccc(-c2cc3ccccc3[nH]2)c1)C1CCN(COc2cncs2)CC1,JFH-1,15 µM,-,Huh7,PCR,≥40%
CC1(C)CC[C@@]2(C(=O)NCCOCCOCCOCCNC(=O)[C@]34CCC(C)(C)CC3C3=CCC5[C@@]6(C)CC[C@H](O)C(C)(C)C6CC[C@@]5(C)[C@]3(C)C[C@H]4O)C(C1)C1=CCC3[C@@]4(C)CC[C@H](O)C(C)(C)C4CC[C@@]3(C)[C@]1(C)C[C@H]2O,-,1 µM,-,Huh7,luciferase / entry,77.5%
COC(=O)/C=C1\S/C(=N/N=C/c2cccc(OC)c2)NC1=O,1b Con1 (replicon),34 µM,-,Huh 5-2,luciferase / luminescence,76.1%

An empty or dashed field is not shown. Percent inhibition refers to the dose given; in toxicity tests it is the harm to the cells.